Measured values from several laboratories, pooled; numbers as filed in NIAID ChemDB.

Common to all: target-level tests; species: Hepatitis C virus; protein: Nonstructural protein 5B; measure: IC50

Two numbers with a dash give a range or band. Conditions beyond the fields shown may differ between rows. Blank or dashed fields: not listed here. ICn: concentration for n% inhibition.

structure	strain or isolate	method	value
O=C(O)c1ccc(N2C(=O)C(=Cc3ccc(-c4ccc(Br)cc4)o3)SC2=S)cc1	-	-	≤1 µM
CC(=O)c1ccc(CCC2(C3CCCC3)CC(=O)CC(=O)O2)cc1Cl	-	-	1–10 µM
CNC(=O)c1c(-c2ccc(F)cc2)oc2cc(N3CCOCC3)c(OCc3ccc(C(=O)O)cc3)cc12	-	-	≤0.5 µM
COc1cc(OC)c(CCC2(C3CCCC3)CC(O)=C(Sc3nnnn3CCN(C)C)C(=O)O2)cc1Cl	-	-	<1 µM
COc1c(-c2ccc3cc(NS(C)(=O)=O)ccc3c2)cc(-n2ccc(=O)[nH]c2=O)cc1C(C)(C)C	GT 1a#1	nucleotide incorporation	0.0024 µM
O=C1NC(=S)SC1=Cc1ccc(-c2cc([N+](=O)[O-])ccc2Cl)o1	-	-	≤1 µM
COc1ccc(CCC2(C3CCCC3)CC(O)=C(Sc3n[nH]c(-c4ccncc4)n3)C(=O)O2)cc1	-	-	<1 µM
CNC(=O)c1c(-c2ccc(F)cc2)oc2cc(N(C)S(C)(=O)=O)c(OCc3c(C)noc3C)cc12	-	-	≤0.5 µM
O=C(O)c1ccc(N2C(=O)/C(=C\c3ccc(-c4cc(C(F)(F)F)ccc4Cl)o3)SC2=S)cc1	-	-	≤1 µM
CNC(=O)c1c(-c2ccc(F)cc2)oc2cc(N(C)S(C)(=O)=O)c(OC(C)C)cc12	-	-	≤0.5 µM
Cc1ccc(-c2ccc(C=C3SC(=S)N(c4ccc(C(=O)O)cc4)C3=O)o2)cc1C	-	-	≤1 µM
COc1ccc(CCC2(C3CCCC3)CC(=O)C(C(=O)c3ccccc3)C(=O)O2)c(OC)c1	-	-	10–50 µM
CNC(=O)c1c(-c2ccc(Cl)s2)oc2ccc(OC)cc12	-	-	≤0.5 µM
COc1ccc(CCC2(C3CCCC3)CC(O)=C(Sc3nc4ccccc4[nH]3)C(=O)O2)cc1Cl	-	-	<1 µM
CCc1cc2c(C(=O)NC)c(-c3ccc(F)cc3)oc2cc1N(C)S(C)(=O)=O	-	-	≤0.5 µM
O=C(O)CN1C(=O)C(=Cc2ccc(-c3ccc(Cl)c(Cl)c3)s2)SC1=S	-	-	≤1 µM

For reference, 2 entries again:

| structure | strain or isolate | method | value |
|---|---|---|---|
| COc1ccc(CCC2(C3CCCC3)CC(O)=C(Sc3n[nH]c(-c4ccncc4)n3)C(=O)O2)cc1 | - | - | <1 µM |
| O=C(O)c1ccc(N2C(=O)/C(=C\c3ccc(-c4cc(C(F)(F)F)ccc4Cl)o3)SC2=S)cc1 | - | - | ≤1 µM |